A mixed list of measured activities; the numbers were collected in NIAID ChemDB.

All rows: growth or infection tests; species: Herpes simplex virus 1; measure: EC50

Lines come from different laboratories, so protocols vary. ECn: concentration that inhibits the pathogen or its effect by n%.

COc1ncnc2c1cnn2Cc1cn(CCCCO)nn1 ; cell line: E6SM ; strain or isolate: KOS ; value: >400 µg/mL
CCCCCCc1cn([C@@H]2OC3COP(=O)(O)OC3[C@H]2O)c(=O)nc1N ; strain or isolate: McIntyre ; value: >400 µg/mL
CC(=O)OCCOCN1C(C)=CC(N)=[N+](c2ccccc2)S1(=O)=O ; cell line: E6SM ; strain or isolate: F ; value: >400 µg/mL
CSc1ncnc2c1cnn2Cc1cnnn1CCCCO ; cell line: E6SM ; strain or isolate: B2006 (TK-) ; value: >400 µg/mL
Cc1cn([C@@H]2O[C@H](COP(=O)(O)O)[C@@H](O)[C@H]2O)c(=O)nc1N ; strain or isolate: McIntyre ; value: >400 µg/mL
O=C(NCc1ccc(Cl)cc1)c1c[nH]c2c(F)cccc2c1=O ; strain or isolate: TSD9 (E597 (A)) ; value: 7.6 µM
O=C1C=CN(COCCO)S(=O)(=O)N1COCCO ; cell line: E6SM ; strain or isolate: McIntyre ; value: >400 µg/mL
CCCc1cn([C@@H]2O[C@H](COP(=O)(O)O)[C@@H](O)[C@H]2O)c(=O)nc1N ; strain or isolate: McIntyre ; value: >400 µg/mL
Cc1cn([C@H]2CC[C@@H](CO)O2)c(=S)[nH]c1=O ; strain or isolate: KOS ; value: 0.28 µg/mL
NC1=CC(N)=NS(=O)(=O)N1COCCO ; cell line: E6SM ; strain or isolate: KOS ; value: >400 µg/mL
O=c1[nH]cnc2c1cnn2Cc1cn(CCCCO)nn1 ; cell line: E6SM ; strain or isolate: VWM1837 ; value: >400 µg/mL
CC(C)Nc1ncnc2c1ncn2C1C[C@H](CO)[C@@H](CO)C1 ; cell line: E6SM ; strain or isolate: KOS (TK-) ; value: >100 µg/mL
OCCCCn1nncc1Cn1ncc2c(SCc3ccccc3)ncnc21 ; cell line: E6SM ; strain or isolate: KOS ; value: >400 µg/mL
O=C(NCc1ccc(Cl)cc1)c1c[nH]c2c(F)cc(CCCO)cc2c1=O ; strain or isolate: KOS ; value: 7.8 µM
CC(C)c1cn([C@@H]2OC3COP(=O)(O)OC3[C@H]2O)c(=O)nc1N ; strain or isolate: McIntyre ; value: >400 µg/mL
N#CC1=CN(COCCO)S(=O)(=O)N=C1N ; cell line: E6SM ; strain or isolate: B206 (TK-) ; value: >400 µg/mL
CCCCc1cn([C@@H]2OC3COP(=O)(O)OC3[C@H]2O)c(=O)nc1N ; strain or isolate: F ; value: >400 µg/mL
O=c1ccn([C@@H]2C[C@H](CO)C[C@H]2CO)c(=O)[nH]1 ; cell line: E6SM ; strain or isolate: KOS (TK-) ; value: >100 µg/mL
CCCCCCc1cn([C@@H]2O[C@H](COP(=O)(O)O)[C@@H](O)[C@H]2O)c(=O)nc1N ; strain or isolate: KOS ; value: >400 µg/mL
CC(=O)OCCOCN1C=CC(=O)NS1(=O)=O ; cell line: E6SM ; strain or isolate: VMW1837 (TK-) ; value: >400 µg/mL
O=c1[nH]cnc2c1ncn2C1C[C@H](CO)[C@@H](CO)C1 ; cell line: E6SM ; strain or isolate: KOS ; value: >100 µg/mL